Reference: PubChem BioAssay AID1259414 (Drosophila RNAi Screening Center, 2018)

Test: 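Host factors increasing or decreasing Wolbachia levels in cultured fly cells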 (primary screen)
Cell system: Drosophila JW18 cells infected with Wolbachia
Reagent: long dsRNA against Drosophila genes, 0.25 µg dsRNA per well of a 384-well plate
Timing: 5 days
Conditions: cells persistently infected with Wolbachia before knock-down; no added drug
Measured: 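Automated imaging of bacterial rRNA staining divided by host cell count, reported as plate-normalised robust z-score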
Reading the numbers: Wolbachia per cell robust z: higher = more Wolbachia per host cell than the plate typical
Active means: 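Active if absolute robust z reaches 1.5 in two or more of three replicates, leaving out multi- or no-target dsRNAs, genes unexpressed in JW18 and A1 wells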
The screen tested about 24,000 reagents; this is an unselected part of those that have a named target and a result. Over the whole deposit, about 1,210 (5%) were called active. 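Inactive calls also include excluded dsRNAs with several or no targets, genes unexpressed in JW18, and well A1, regardless of score.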 Entries without a mark were called inactive. Reagents against one gene are numbered here. Reagent sequences are not shown.

no.	target gene	reagent	Wolbachia per cell robust z, rep 1	Wolbachia per cell robust z, rep 2	Wolbachia per cell robust z, rep 3
1	Syn1 (GeneID 40424)	1	-0.851	-6.33	1.22
2	Syn1 (GeneID 40424)	2	-0.806	0.319	-9.08
3	Syn1 (GeneID 40424)	3	0.636	-0.714	-0.894
4	eIF4G2 (GeneID 42819)	1	0.19	1.34	1.05
5	eIF4G2 (GeneID 42819)	2	-1.27	0.207	-0.164
6	Gr64a (GeneID 117481)	1	-2.07	0.189	0.293
7	EMRE (GeneID 37071)	1	-0.0456	-0.283	-1.94
8	Kif19A (GeneID 41717)	1	-0.416	-1.27	0.309
9	Kif19A (GeneID 41717)	2	0.0874	1.43	1.28
10	Naprt (GeneID 33626)	1	-1.08	-0.668	0.645
11	Naprt (GeneID 33626)	2	0.666	-0.473	-0.0892
12	erm (GeneID 326152)	1	-0.0715	-0.16	-0.702
13	CG31886 (GeneID 326170)	1	0.743	0.0685	-0.363
14	CG31886 (GeneID 326170)	2	0.732	-0.467	-0.0152
15	CG2915 (GeneID 35754)	1	0.0239	0.672	1.03
16	CG3594 (GeneID 37964)	1	0.903	-1.45	-0.356
17	CG3594 (GeneID 37964)	2	-0.0113	-0.186	-0.075
18	Invadolysin (GeneID 49580)	1	-0.125	-0.321	0.141
19	CG30457 (GeneID 36940)	1	-0.0322	0.505	1.07
20	CG30457 (GeneID 36940)	2	0.105	0.168	-0.413
21	Ser8 (GeneID 36489)	1	-2.75	0.00997	-0.232
22	Ser8 (GeneID 36489)	2	0.156	0.821	-0.0409
23	CG32085 (GeneID 39311)	1	-0.15	-1.27	-0.927
24	CG32085 (GeneID 39311)	2	-0.377	0.17	1.39
25	CG32085 (GeneID 39311)	3	-0.0275	0.973	0.8
26	ND-B14.5B (GeneID 33528)	1	0.372	-1.48	0.48

Copied from the listing (11 entries):
no.	target gene	reagent	Wolbachia per cell robust z, rep 1	Wolbachia per cell robust z, rep 2	Wolbachia per cell robust z, rep 3
5	eIF4G2 (GeneID 42819)	2	-1.27	0.207	-0.164
6	Gr64a (GeneID 117481)	1	-2.07	0.189	0.293
7	EMRE (GeneID 37071)	1	-0.0456	-0.283	-1.94
8	Kif19A (GeneID 41717)	1	-0.416	-1.27	0.309
9	Kif19A (GeneID 41717)	2	0.0874	1.43	1.28
10	Naprt (GeneID 33626)	1	-1.08	-0.668	0.645
11	Naprt (GeneID 33626)	2	0.666	-0.473	-0.0892
12	erm (GeneID 326152)	1	-0.0715	-0.16	-0.702
13	CG31886 (GeneID 326170)	1	0.743	0.0685	-0.363
14	CG31886 (GeneID 326170)	2	0.732	-0.467	-0.0152
15	CG2915 (GeneID 35754)	1	0.0239	0.672	1.03

The listing continues.
no.	target gene	reagent	Wolbachia per cell robust z, rep 1	Wolbachia per cell robust z, rep 2	Wolbachia per cell robust z, rep 3
27	CG5267 (GeneID 36875)	1	0.496	-0.00335	-0.0705
28	Nnk (GeneID 42143)	1	0.017	1.06	0.651
29	Nnk (GeneID 42143)	2	-0.135	-0.25	1.64
30	Vha16-4 (GeneID 36900)	1	0.914	0.276	-0.402
31	CG30088 (GeneID 246447)	1	0.8	0.862	0.332
32	CG30088 (GeneID 246447)	2	-0.526	-0.514	-0.602
33	Lip4 (GeneID 34450)	1	0.92	-1.36	0.0643
34	CG4301 (GeneID 32610)	1	1.2	-0.899	0.923
35	ebi (GeneID 33212)	1	0.159	0.173	0.699
36	CG6051 (GeneID 43271)	1	0.662	0.112	0.573
37	CG6051 (GeneID 43271)	2	-1.05	-0.572	-0.393
38	CCT2 (GeneID 31838)	1	-0.354	1.18	-9.31
39	CCT2 (GeneID 31838)	2	-0.0542	0.0369	-0.825
40	CCT2 (GeneID 31838)	3	1.29	0.695	-1.49
41	CCT2 (GeneID 31838)	4	0.903	1.08	0.878
42	CG6179 (GeneID 32819)	1	0.351	0.251	-4.09
43	CG11710 (GeneID 33044)	1	-1.7 (active)	-2.41	-4.49
44	CG11710 (GeneID 33044)	2	0.631	-6.4	1.41
45	Fs(2)Ket (GeneID 35336)	1	0.864 (active)	1.71	1.53
46	Fs(2)Ket (GeneID 35336)	2	1.08	0.921	1.98
47	mio (GeneID 33399)	1	0.0684	0.934	0.0346
48	mio (GeneID 33399)	2	-0.0346	0.211	-0.603
49	Nepl13 (GeneID 42699)	1	-0.491	0.97	-0.125
50	Aps (GeneID 39226)	1	0.815	-0.197	-0.247
51	Aps (GeneID 39226)	2	0.648	-0.173	0.438
52	sesB (GeneID 32007)	1	0.739	0.965	-5.15
53	sesB (GeneID 32007)	2	1.19	-1	1.08
54	CG14641 (GeneID 40529)	1	0.983	-2.45	1.73
55	CG14641 (GeneID 40529)	2	0.827 (active)	1.98	3.87
56	CR41506 (GeneID 5740167)	1	-0.298	-0.9	0.515
57	Npc2c (GeneID 41233)	1	-1.5	-0.196	0.284
58	Npc2c (GeneID 41233)	2	0.504	-2.05	-0.568
59	ZIPIC (GeneID 43566)	1	-0.488	-1.93	-0.0659
60	Aladin (GeneID 31881)	1	1.34	0.783	0.578
61	Aladin (GeneID 31881)	2	-2.63 (active)	-1.64	-1.28
62	Desi (GeneID 41292)	1	-0.113	0.0239	-0.0306
63	lab (GeneID 40817)	1	0.21	0.447	0.289
64	lab (GeneID 40817)	2	0.0752	-1.63	-0.815
65	PPP1R15 (GeneID 37820)	1	2.92 (active)	2.57	0.768
66	PPP1R15 (GeneID 37820)	2	2.03 (active)	2.33	2.3
67	CG14223 (GeneID 32972)	1	-0.559	-0.0452	-1.62
68	CG14223 (GeneID 32972)	2	1.44 (active)	1.64	1.71
